In publication PMC12313075, “Legionella effector LpPIP recruits protein phosphatase 1 to the mitochondria to induce dephosphorylation of outer membrane proteins” (2025):

Experiments:
Test in all cases: co-immunoprecipitation (anti-FLAG) and mass spectrometry
Details in all cases: read off a plot
TOMM70A = target: TOMM70A
VDAC2 = target: VDAC2
MGST3 = target: MGST3
VDAC3 = target: VDAC3
VDAC1 = target: VDAC1
RMDN3 = target: RMDN3

“FLAG-Lpg1625 (LpPIP, Legionella pneumophila PP1-Interacting Protein) (from UniProt Q5ZV17) K17A; V19A” showed an enrichment (TOMM70A) of 2.6 log2, an enrichment (VDAC2) of 3.3 log2 and an enrichment (MGST3) of 1.7 log2. The enrichment (VDAC3) was 3.4 log2, the enrichment (VDAC1) was 5.6 log2 and the enrichment (RMDN3) was 2.4 log2.
